Experimental data published in patent publication US9212391B2, “Method for determining DNA fragmentation in microorganisms” (Universidad Autonoma de Madrid, priority 2006, dated 2015).

System: Escherichia coli strain resistant to ciprofloxacin
Conditions: up to 10.00 μg/ml, 40 minutes

## O=C(O)c1cn(C2CC2)c2cc(N3CCNCC3)c(F)cc2c1=O [Ciprofloxacin, ciprofloxacin]
  effect detected by the vital stain (in words): did not detect any effect
